Laboratory results as given in the supplement of paper PMC3578754.

Columns and labels:
Assay in all cases: fold change of IC50 against reference virus; higher = more resistant
abacavir = compound: Nc1nc(NC2CC2)c2ncn([C@H]3C=C[C@@H](CO)C3)c2n1 [abacavir]
Description: (§1)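 Cell-culture drug susceptibility tests of virus bearing the reverse transcriptase of each isolate, gathered from many studies.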

zidovudine = compound: Cc1cn([C@H]2C[C@H](N=[N+]=[N-])[C@@H](CO)O2)c(=O)[nH]c1=O [zidovudine]
Description: as §1

stavudine = compound: Cc1cn([C@H]2C=C[C@@H](CO)O2)c(=O)[nH]c1=O [stavudine]
Description: as §1

didanosine = compound: O=c1[nH]cnc2c1ncn2[C@H]1CC[C@@H](CO)O1 [didanosine]
Description: as §1

nevirapine = compound: Cc1ccnc2c1NC(=O)c1cccnc1N2C1CC1 [nevirapine]
Description: as §1

delavirdine = compound: CC(C)Nc1cccnc1N1CCN(C(=O)c2cc3cc(NS(C)(=O)=O)ccc3[nH]2)CC1 [delavirdine]
Description: as §1

efavirenz = compound: O=C1Nc2ccc(Cl)cc2[C@@](C#CC2CC2)(C(F)(F)F)O1 [efavirenz]
Description: as §1

Test System	fold change of IC50 against reference virus (abacavir)	fold change of IC50 against reference virus (zidovudine)	fold change of IC50 against reference virus (stavudine)	fold change of IC50 against reference virus (didanosine)	fold change of IC50 against reference virus (nevirapine)	fold change of IC50 against reference virus (delavirdine)	fold change of IC50 against reference virus (efavirenz)
HIV-1 isolate 72 (reverse transcriptase changes: E44D M184V, study 93)	3.1	1.2	–	–	–	–	–
HIV-1 isolate 189 (reverse transcriptase changes: D67N K70R K103N Y181C T215Y K219Q, study 107)	2.1	36.4	1.7	0.7	–	–	–
HIV-1 isolate 995 (reverse transcriptase changes: K122E F214L A272P K277R M357T A376T A400T N447S D460N S468T S519N, study 13)	1	1	–	1	1	–	–
HIV-1 isolate 195 (reverse transcriptase changes: E44D V118I, study 93)	2.2	1.2	–	–	–	–	–
HIV-1 isolate 842 (reverse transcriptase changes: K70R D177N I178L Q197E R211K V245T D250E T286A I293V, study 129)	1	–	–	–	3	–	–
HIV-1 isolate 857 (reverse transcriptase changes: V118I M184V, study 93)	1.8	1	–	–	–	–	–
HIV-1 isolate 757 (reverse transcriptase changes: M41L D67N T69D D123E M184V G196R L210W T215Y, study 32)	30	60	–	–	–	–	–
HIV-1 isolate 1291 (reverse transcriptase changes: M41L E44D D67N T69D A98S K122E D123E D177E M184V L210W R211K T215Y K219N, study 32)	62	84	–	–	–	–	–
HIV-1 isolate 716 (reverse transcriptase changes: M41L E44D V118I L210W R211K T215Y, study 93)	4.7	100	–	–	–	–	–
HIV-1 isolate 1610 (reverse transcriptase changes: M41L M184V L210W R211K T215Y, study 93)	8	51	–	–	–	–	–
HIV-1 isolate 1277 (reverse transcriptase changes: K20R K122E I142V T165I M184V K277R A288S I293V, study 129)	4	–	1	–	–	–	–
HIV-1 isolate 287 (reverse transcriptase changes: M41L L210W R211K T215Y, study 93)	3.8	100	–	–	–	–	–
HIV-1 isolate 1415 (reverse transcriptase changes: E44D V118I M184V, study 93)	3.1	1	–	–	–	–	–
HIV-1 isolate 276 (reverse transcriptase changes: M41L E44D V118I M184V L210W R211K T215Y, study 93)	7.9	32.2	–	–	–	–	–
HIV-1 isolate 385 (reverse transcriptase changes: K103N K122E D123E I135M S162C T200A Q207A R211K P225H V245Q K277R I293V, study 129)	1	–	–	–	–	–	–
HIV-1 isolate 178 (reverse transcriptase changes: E44D, study 93)	1.3	2	–	–	–	–	–
HIV-1 isolate 1600 (reverse transcriptase changes: V118I, study 93)	1.2	1	–	–	–	–	–
HIV-1 isolate 197 (reverse transcriptase changes: K102Q K103N S162C Y188L K277R, study 53)	–	–	–	–	680	190	270

Test System	fold change of IC50 against reference virus (abacavir)	fold change of IC50 against reference virus (zidovudine)	fold change of IC50 against reference virus (stavudine)	fold change of IC50 against reference virus (didanosine)	fold change of IC50 against reference virus (nevirapine)	fold change of IC50 against reference virus (delavirdine)	fold change of IC50 against reference virus (efavirenz)
HIV-1 isolate 658 (reverse transcriptase changes: K11T K20R V21I V35T K122E D123N K173S D177G V179I Y181C T200A I202V Q207A R211S V245Q E248C V261I T286A E291D V292I I293V P294T E312D I329V, study 14)	–	–	–	–	208	44	1.3
HIV-1 isolate 506 (reverse transcriptase changes: A98G K102Q S162C K277R, study 53)	–	–	–	–	8	3	3
HIV-1 isolate 1540 (reverse transcriptase changes: K102Q V106A S162C F227L K277R, study 53)	–	–	–	–	680	3	8
HIV-1 isolate 416 (reverse transcriptase changes: K102Q S162C M230L K277R, study 70)	–	–	–	–	39	58	23
HIV-1 isolate 1587 (reverse transcriptase changes: D67G S68G T69D K70R V118I I135T M184V Q197K F214L T215F D218E K219Q, study 32)	24	28	–	–	–	–	–
HIV-1 isolate 939 (reverse transcriptase changes: K102Q V106A S162C K277R, study 110)	–	–	–	–	64	5	1.7
HIV-1 isolate 965 (reverse transcriptase changes: K102Q K103N S162C K277R, study 110)	–	–	–	–	55	52	26
HIV-1 isolate 1229 (reverse transcriptase changes: M184V, study 93)	1.5	1.4	–	–	–	–	–
HIV-1 isolate 372 (reverse transcriptase changes: K102Q K103N S162C P236L K277R, study 53)	–	–	–	–	165	190	5
HIV-1 isolate 409 (reverse transcriptase changes: L74V K102Q S162C G190V K277R I293V, study 55)	–	–	–	–	600	0.1	270
HIV-1 isolate 1569 (reverse transcriptase changes: K102Q K103N S162C M230L K277R, study 70)	–	–	–	–	780	≥ 250	450
HIV-1 isolate 1531 (reverse transcriptase changes: K102Q S162C G190A K277R, study 110)	–	–	–	–	75	0.5	7.6
HIV-1 isolate 413 (reverse transcriptase changes: E6D V35T V60I K122E D123S I135T K166R K173L Q174K D177E I178M V179I E194D G196E Q207A R211S V245M D250E K277R T286A E291D I293V P294T E312D, study 14)	–	–	–	–	0.6	0.4	0.5
HIV-1 isolate 572 (reverse transcriptase changes: K11T K20R V21I V35T T39K K43E D123N K173T Q174K D177E V179I G190A I202V Q207A R211S V245Q E248D T286A E291D V292I I293V P294Q E312D, study 14)	–	–	–	–	208	0.3	6.5
HIV-1 isolate 1626 (reverse transcriptase changes: K11T K20R V21I V35T T39K K43E D123N K173T Q174K D177E V179I I202V Q207A R211S V245Q E248D K281R T286A E291D V292I I293V E312D, study 14)	–	–	–	–	0.7	0.7	0.6
HIV-1 isolate 377 (reverse transcriptase changes: K102Q K103R S162C I178V V179D K277R I293V K347R R358K V435I S468P, study 111)	–	–	–	–	16	27	19
HIV-1 isolate 1612 (reverse transcriptase changes: I31T V35T E40D I50V K122E D123S I135T I142T K173S D177E V179I Q207A R211S F214L V245Q A272P E291D I293V P294T L310I E312D D324E, study 14)	–	–	–	–	8.1	6.8	5.6
HIV-1 isolate 311 (reverse transcriptase changes: K102Q D123E S162C M184V T200A Q207E A272P K277R I293V, study 129)	3	–	1	–	–	–	–

Fold change is the IC50 on the isolate divided by the IC50 on a reference virus; 1 = unchanged, higher = more resistant. Changes are given against the subtype B consensus. No active / inactive call. The values were gathered from many studies (numbered anew) with different assays, which the source does not name. Most viruses are clinical isolates; some are laboratory strains or clones with known resistance changes. Isolates with mixed residues are left out; stretches that were not sequenced show no change. Round top values that many isolates share are read here as limits; other very high values and 0.1 may be limits too.
